Construct, isoform or probe ends are uncertain for at least one entry. Where a protein sequence is shown, tags need not be part of it.
Tests used:
[1] = test system: T1, TofM-His (Burkholderia glumae BGR1); test: EMSA; conditions: increasing TofM, 10 mM HEPES pH 7.3, 20 mM KCl, 1 mM MgCl2, 1 mM DTT, 1% glycerol, 15 min at 28 C, 4% native PAGE, recombinant protein, label: 3' biotin, probe letters rebuilt from the primers and the genome
T1 sequence (looked up, limits assumed): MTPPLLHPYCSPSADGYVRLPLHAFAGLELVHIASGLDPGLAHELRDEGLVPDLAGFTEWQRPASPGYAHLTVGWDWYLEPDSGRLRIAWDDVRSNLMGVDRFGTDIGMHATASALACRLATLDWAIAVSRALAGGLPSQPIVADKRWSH

[2] = test system: T1, TofM-His (Burkholderia glumae BGR1); test: competition with a labelled probe; conditions: 4 uM TofM, 10 mM HEPES pH 7.3, 20 mM KCl, 1 mM MgCl2, 1 mM DTT, 1% glycerol, 15 min at 28 C, 4% native PAGE, recombinant protein, label: 3' biotin, probe letters rebuilt from the primers and the genome

“GGGAAUCCGAGAUAUCGCGCCGACCCUCGCGUGCCAUUUUUUCCCUGUCAAGGAUGCCAGGAAUCGGCACCGAAUCCCUGUCAGGAAUAACAGUUACCUGUCCUCGGGGCGCACGCUGUAAUGCGCCCAUUCCAAACGGAAUUACCACGAGGACACCAUGCAAACUUUCGUUCACGAGGCAGGCCGCCUUCCCGCCCAUAUCGCCGCCGAGCUGGGUUCGUACCGUUAUCGCGUGUUCGUCGAGCAGCUCGGCUGGCAGCUGCCGUCCGAAGACGAAAAAUUCGAGCGCGAUCAGUACGAUCGCGACGAU [tofI mRNA 306 nt]”: binds ([1]; 25 nM RNA); binds ([2]; 25 nM labeled RNA, 2.5 uM unlabeled self competitor blocks binding).
“GGGAAUCCGAGAUAUCGCGCCGACCCUCGCGUGCCAUUUUUUCCCUGUCAAGGAUGCCAGGAAUCGGCACCGAAUCCCUGUCAGGAAUAACAGUUACCUGUCCUCGGGGCGCACGCUGUAAUGCGCCCAUUCCAAACGGAAUUACCACGAGGACACCAUGCAAACUUUCGUUCACGAGGCAGGCCGCCUUCCCGCCCAUAUCGCCGCCGAGCUGGGUUCGUACCGUUAUCGCGUGUUCGUCGAGCAGCUCGGCUGGCAGCUGCCGUCCGAAGACGAAAAAUUCGAGCGCGAUCAGUACGAUCGCGACGAUACCGUCUACGUAUUGGGACGCGAUGCGAAUGGGGAGAUAUGCGGUUGCGCGCGGCUGCUGCCGACCACCCGCCCCUACCUGUUGCAGGAAGUGUUCCCGCACCUGCUGGCCGACGAGCAUCCGGCGCCGCGCUCCGCCCACGUCUGGGAGCUGUCGCGCUUCGCGGCGACCCCCGAGGAAGGGGCCGAUGCCGGCAGCCUGGCCUGGUCGGUGCGGCCGAUGCUCGCCGCCGCCGUGGAGUGCGCGGCACGGCGCGGCGCGCGCCAGUUGAUCGGGGUCACGUUCUGCAGCAUCGAGCGGCUGUUCCGCCGGAUCGGCGUGCAUGCCCACCGGGCCGGCGCACCGGUGUCGAUCGACGGGCGCAUGGUGGUGGCAUGCUGGAUCGACAUCGACGCGCAGACGCUGGCCGCGCUCGACCUCGACCCGGCGCUUUGCGCGUCGCAACCCGAAGCGGCCGGGGGGGGGUUUUUUUU [tofI mRNA 763 nt]”: binds ([1]; 10 nM RNA); binds ([2]; 10 nM labeled RNA, 1 uM unlabeled self competitor blocks binding).

Source: PMC10783058
